In PMC3616969:

Target: HIV-1 AD8 gp120 (wild type), cut from Env gp160 (HIV-1 AD8)

## soluble CD4 (from UniProt P01730) (receptor)
  IC50 of sCD4 for inhibition of cell-cell fusion by WT Env (293T effectors, CD4-plus-CCR5 BHK21 targets, luciferase): 60 µg/mL
